Compound potency records, mixed from different reports. Data source: NIAID ChemDB in PubChem.

Shared fields: whole-cell or culture tests

Percent inhibition refers to the dose given; in toxicity tests it is the harm to the cells. Two numbers with a dash give a range or band. An empty or dashed field is not shown. A number after MIC or MFC names an inhibition level or a share of isolates. ECn is the concentration giving n% inhibition of infection, replication or growth. Conditions beyond the fields shown may differ between rows.

SMILES,agent,strain or isolate,read by,setting,read-out,tested at,value
CCCCCOc1ccc(-c2cc(-c3ccc(C(=O)N[C@H]4C[C@@H](O)[C@@H](O)NC(=O)[C@@H]5[C@@H](O)[C@@H](C)CN5C(=O)[C@H]([C@H](O)CC(N)=O)NC(=O)[C@H]([C@H](O)[C@@H](O)c5ccc(O)c(OS(=O)(=O)O)c5)NC(=O)[C@@H]5C[C@@H](O)CN5C(=O)[C@H]([C@@H](C)O)NC4=O)cc3)no2)cc1,Candida dubliniensis,-,-,-,MIC50,-,0.015–0.12 µg/mL
CCC(C)CC(C)CCCCCCCCC(=O)N[C@H]1C[C@@H](O)[C@H](NCCN)NC(=O)[C@@H]2[C@@H](O)CCN2C(=O)[C@H]([C@H](O)CCN)NC(=O)[C@H]([C@H](O)[C@@H](O)c2ccc(O)cc2)NC(=O)[C@@H]2C[C@@H](O)CN2C(=O)[C@H]([C@@H](C)O)NC1=O,Candida albicans,10 isolates,broth dilution,pH 4,EC90,-,2 µg/mL
O/N=C/c1ccc(O)cc1,Candida lipolytica,-,-,-,MIC100,-,>7290 µM
CCCCCOc1ccc(-c2cc(-c3ccc(C(=O)N[C@H]4C[C@@H](O)[C@@H](O)NC(=O)[C@@H]5[C@@H](O)[C@@H](C)CN5C(=O)[C@H]([C@H](O)CC(N)=O)NC(=O)[C@H]([C@H](O)[C@@H](O)c5ccc(O)c(OS(=O)(=O)O)c5)NC(=O)[C@@H]5C[C@@H](O)CN5C(=O)[C@H]([C@@H](C)O)NC4=O)cc3)no2)cc1,Candida spp.,Fluconazole-resistant,broth dilution,-,MIC50,-,0.016 µg/mL
O=[N+]([O-])c1cccc(/C=N\O)c1,Candida lipolytica,-,-,-,MIC,-,3010 µM
C[C@@H](c1ncncc1F)[C@](O)(Cn1cncn1)c1ccc(F)cc1F,Candida albicans,15 isolates,broth dilution,pH 5,EC90,-,0.03 µg/mL
O=C(CCn1ccnc1)c1cccc(C(O)c2ccc(Br)cc2)c1,Candida guilliermondii,RTCC 1377,broth dilution,-,MIC,-,16 µg/mL
COC(=O)[C@H]1[C@@H]2C[C@@H](O[C@@H]3O[C@H](C)[C@@H](O)[C@H](N)[C@@H]3O)/C=C/C=C/C=C/C=C/C=C/C=C/C=C/[C@H](C)[C@@H](O)[C@H](C)[C@H](C)OC(=O)C[C@H](O)C[C@H](O)[C@@H](O)CC[C@H](O)C[C@H](O)C[C@](O)(C[C@@H]1O)O2,Candida glabrata,40 isolates,broth dilution,pH 4,EC90,-,4 µg/mL
CC(C)(O)c1cn(-c2ccc([N+](=O)[O-])cc2)nn1,Candida albicans,URM 4819,broth dilution,-,inhibition,2048 µg/mL,0%
C[C@@H](c1ncncc1F)[C@](O)(Cn1cncn1)c1ccc(F)cc1F,Candida spp.,fluconazole-sensitive,broth dilution,-,MIC50,-,0.016 µg/mL
Cc1ccc(-n2cc(C(C)(C)O)nn2)cc1C,Candida tropicalis,URM 933,broth dilution,-,inhibition,2048 µg/mL,0%
OC(CCn1ccnc1)c1ccc(-c2ccccc2)cc1,Candida guilliermondii,RTCC1248,broth dilution,-,MIC,-,>64 µg/mL
O/N=C\c1cccs1,Candida lipolytica,-,-,-,MIC100,-,3930 µM
CCC(C)CC(C)CCCCCCCCC(=O)N[C@H]1C[C@@H](O)[C@H](NCCN)NC(=O)[C@@H]2[C@@H](O)CCN2C(=O)[C@H]([C@H](O)CCN)NC(=O)[C@H]([C@H](O)[C@@H](O)c2ccc(O)cc2)NC(=O)[C@@H]2C[C@@H](O)CN2C(=O)[C@H]([C@@H](C)O)NC1=O,Candida lusitaniae,-,-,-,MIC50,-,0.015–4 µg/mL
O=C(CCn1ccnc1)c1cccc2ccccc12,Candida kefyr,RTCC 1019,broth dilution,-,MIC,-,>64 µg/mL
COc1ccc(/C=N/O)cc1,Candida lipolytica,-,-,-,MIC100,-,6620 µM
CC(C)(O)c1cn(-c2ccc3ccccc3c2)nn1,Candida parapsilosis,URM 4984,broth dilution,-,inhibition,2048 µg/mL,0%
Nc1[nH]c(=O)ncc1F,Candida albicans,15 isolates,broth dilution,pH 7,EC90,-,1 µg/mL
C=CCc1ccc(OC)c(OC)c1,Candida albicans,3081,turbidity,-,MIC90,-,345 µg/mL
O=C(CCn1ccnc1)c1cccc(C(O)c2ccc(Cl)c(Cl)c2)c1,Candida kefyr,RTCC 1019,broth dilution,-,MIC,-,1 µg/mL
O/N=C\c1ccc(O)cc1,Candida famata,-,broth dilution,-,MIC100,-,>7290 µM
O=C(CCn1ccnc1)c1cccc(O)c1,Candida guilliermondii,RTCC 1377,broth dilution,-,MIC,-,>64 µg/mL
CC(C)(O)c1cn(-c2cccc3ccccc23)nn1,Candida parapsilosis,ATCC 22019,broth dilution,-,inhibition,2048 µg/mL,0%
O/N=C\c1ccc(F)cc1,Candida famata,-,-,-,MIC,-,3600 µM
O=C(CCn1ccnc1)c1cccc(C(O)c2ccc(Cl)cc2)c1,Candida kefyr,RTCC 1074,broth dilution,-,MIC,-,64 µg/mL
N=C(N)c1ccc2nc(-c3ccc(-c4nc5ccc(C(=N)N)cc5[nH]4)[nH]3)[nH]c2c1,Candida albicans,21 strains,-,-,Geometric mean MFC,-,1.47 µg/mL